A mixed list of measured activities; the numbers were collected in NIAID ChemDB.

Common to all: whole-cell or culture tests; organism: Varicella zoster virus; read-out: EC50

An empty or dashed field is not shown. ECn is the concentration giving n% inhibition of infection, replication or growth. Conditions beyond the fields shown may differ between rows.

SMILES,cell line,read by,strain,value
Cc1c(Br)cc(Br)c2ncc(CSCc3ccc(Cl)cc3Cl)n12,HEL,plaque count,YS/R (TK-),2.9 µg/mL
O=C(O)P(=O)(O)O,HEL,plaque count,YS/R (TK-),28.3 µM
O=c1[nH]c(=O)n([C@H]2C[C@H](O)[C@@H](CO)O2)cc1I,HEL,plaque count,YS,0.3 µg/mL
Cc1ccn2c(C3OCCO3)cnc2c1,HEL,-,OKA,>1000 µM
CC1(C)[C@@H](CO)CC[C@@]1(C)Cn1nnc2c(Cl)ncnc21,HEL,cytopathic effect,YS/R (TK-),>50 µg/mL
Nc1nc2c(ncn2CCCC(CO)CO)c(=O)[nH]1,HEL,cytopathic effect / ELISA,9/84 + PER + ULF + BIR + Y,17.8 µM
O=c1nc2oc(-c3ccc(Cl)cc3)cc2cn1[C@H]1C[C@H](O)[C@@H](CO)O1,HEL,cytopathic effect,OKA,0.5 µM
Cc1c(Br)cc(Br)c2ncc(CSCc3ccc(F)cc3)n12,HEL,plaque count,YS (TK+),>5 µg/mL
O=C(NCc1ccc(Cl)cc1)c1c[nH]c2ccc(CCCO)cc2c1=O,-,plaque count,STE,0.1 µM
Nc1nc(=O)n([C@H]2C[C@H](O)[C@@H](CO)O2)cc1/C=C/Cl,HEL,plaque count,OKA (TK+),0.0034 µM
Cc1ccc(OCCCc2cc3cn([C@H]4C[C@H](O)[C@@H](CO)O4)c(=O)nc3o2)cc1,HEL,plaque count,(TK-)/YS/R,>50 µM
Cc1c(Br)cc(Br)c2ncc(CSCCCc3ccccc3)n12,HEL,plaque count,07/1 (TK-),8.3 µg/mL
CC1(C)[C@@H](CO)CC[C@@]1(C)Cn1cnc2c(N)ncnc21,HEL,cytopathic effect,07/1 (TK-),>50 µg/mL
Cc1c(Br)cc(Br)c2ncc(CSCc3ccc(Cl)c(Cl)c3)n12,HEL,plaque count,YS (TK+),4 µg/mL
Nc1nc(N)c2ncn([C@H]3CCC[C@H]3CO)c2n1,HEL,plaque count,YS/R (TK-),37 µg/mL
CCc1ccc(OCCCc2cc3cn([C@H]4C[C@H](O)[C@@H](CO)O4)c(=O)nc3o2)cc1,HEL,plaque count,(TK+)/OKA,3.2 µM
Cc1cccn2c(C3OCCO3)cnc12,HEL,-,OKA,>1000 µM
Nc1nc(N)c2ncn(CCOCP(=O)(O)O)c2n1,HEL,cytopathic effect,Oka CF1368-resistant,3.2 µM
CC1(C)[C@@H](CO)CC[C@@]1(C)Cn1cnc2c(Cl)ncnc21,HEL,cytopathic effect,OKA,>50 µg/mL
Cc1c(Br)cc(Br)c2ncc(CSCc3ccccc3Cl)n12,HEL,plaque count,OKA (TK+),>5 µg/mL
COc1ccc(-c2cc3cn([C@H]4C[C@H](O)[C@@H](CO)O4)c(=O)nc3o2)cc1,HEL,cytopathic effect,07/1 (TK-),>50 µM
Nc1nc2c(ncn2COCCO)c(=O)[nH]1,-,plaque count,07/1 (TK-),7.8 µg/mL
CCCCCCOc1ccc(-c2cc3cn([C@H]4C[C@H](O)[C@@H](CO)O4)c(=O)nc3o2)cc1,HEL,cytopathic effect,OKA,<0.5 µM
OC[C@H]1O[C@@H](c2cc(C(O)C(I)I)c(F)cc2F)C[C@@H]1O,HEL,plaque count,YS/R (TK-),>50 µg/mL
O=c1[nH]c(=O)n([C@@H]2O[C@H](CO)[C@@H](O)[C@@H]2O)cc1/C=C/Br,HEL,plaque count,OKA (TK+),0.000074 µM
Cc1c(Br)cc(Br)c2ncc(CSCc3ccccc3F)n12,HEL,plaque count,YS (TK+),>5 µg/mL
O=c1[nH]c(=O)n([C@H]2C[C@H](O)[C@@H](CO)O2)cc1I,HEL,cytopathic effect / ELISA,9/84,9.3 µM
O=c1nc2oc(CCCOc3ccccc3)cc2cn1[C@H]1C[C@H](O)[C@@H](CO)O1,HEL,plaque count,TK+/YS,92 µM
Nc1ccn([C@@H]2O[C@H](CO)[C@@H](O)[C@@H]2O)c(=O)n1,HEL,plaque count,YS-W1 H13,0.13 µg/mL
Nc1nc2c(ncn2COC(CO)CO)c(=O)[nH]1,HEL,cytopathic effect,Oka PFA-resistant/A,1.3 µM
CC1(C)[C@H](CCO)C[C@@H]1n1cnc2c(Cl)ncnc21,-,plaque count,07/1 (TK-),>50 µg/mL
Nc1nc2c(ncn2CCC(CO)CO)c(=O)[nH]1,HEL,cytopathic effect,Clinical isolate VZV-26,3.54 µM
OC[C@H]1O[C@@H](c2cc(C(O)CBr)c(F)cc2F)C[C@@H]1O,HEL,plaque count,YS (TK+),>20 µg/mL
O=c1ccn([C@@H]2O[C@H](/C=C/C=C(Br)Br)[C@@H](O)[C@H]2O)c(=O)[nH]1,HEL,-,YS/R,>120 µM
O=C(O)P(=O)(O)O,HEL,cytopathic effect,Clinical isolate VZV-25,81 µM
Nc1ncnc2c1ncn2[C@@H]1C=C(CO)[C@@H](O)[C@H]1O,HEL,cytopathic effect,OKA YS,10 µg/mL
Nc1nc2c(ncn2CC(CO)CCO)c(=O)[nH]1,HEL,cytopathic effect / ELISA,9/84-C,>100 µM
Cc1cccn2c(C3OCCS3)cnc12,HEL,-,YS/R,>1000 µM
O=c1[nH]c(=O)n([C@H]2C[C@H](O)[C@@H](CO)O2)cc1/C=C/Br,HEL,plaque count,YS/R (TK-),114.7 µM
Nc1ncnc2c1ncn2C[C@@H](CO)OCP(=O)(O)O,HEL,cytopathic effect,07/1 (TK-),0.004 µg/mL
C=Cc1cn([C@@H]2O[C@H](CO)[C@@H](O)[C@@H]2O)c(=O)[nH]c1=O,-,plaque count,Kawaguchi acyclovir-resistant mutant A6,0.115 µg/mL
CCCCCOc1ccc(-c2cc3cn([C@H]4C[C@H](O)[C@@H](CO)O4)c(=O)nc3o2)cc1,HEL,cytopathic effect,07/1 (TK-),>50 µM
Nc1ncnc2c1ncn2[C@@H]1C[C@H](CO)[C@@H](O)[C@@H]1O,HEL,cytopathic effect / ELISA,9/84-C,37 µM
CC1(C)[C@H](CCO)C[C@@H]1n1cnc2c(=O)[nH]cnc21,-,plaque count,YS (TK+),>50 µg/mL
Nc1nc2c(ncn2COC(CO)CO)c(=O)[nH]1,HEL,cytopathic effect / ELISA,9/84 + PER + ULF + BIR + Y,40.9 µM
Nc1nc2c(ncn2COCCO)c(=O)[nH]1,HEL,cytopathic effect,07/1 (TK-),4 µg/mL
Cc1ccn2c(C3OCCS3)cnc2c1,HEL,-,YS/R,>1000 µM
Cn1cc(C(=O)NCc2ccc(Cl)cc2)c(=O)c2cc(CN3CCOCC3)ccc21,HFF,plaque count,GA varicella isolate,0.2 µM
O=C(O)CP(=O)(O)O,-,plaque count,Kawaguchi acyclovir-resistant mutant A7,1.25 µg/mL
Nc1nc(N)c2ncn(C[C@H]3CCC[C@H]3CO)c2n1,HEL,plaque count,OKA (TK+),>50 µg/mL
O=c1[nH]c(=O)n([C@H]2C[C@H](O)[C@@H](CO)O2)cc1-c1ccc(Br)s1,HEL,plaque count,YS/R (TK-),>103 µM
CC1(C)[C@@H](CO)CC[C@@]1(C)Cn1nnc2c(N)ncnc21,HEL,cytopathic effect,YS,>50 µg/mL
Nc1ncc2ncn(C[C@H]3CCC[C@H]3CO)c2n1,HEL,plaque count,YS/R (TK-),>50 µg/mL
Nc1nc2c(ncn2CCC(O)CO)c(=O)[nH]1,HEL,cytopathic effect / ELISA,9/84-C,>400 µM